{"source": "PubChem BioAssay AID1224833 (University of Georgia, 2016)", "aim": "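Human genes whose knock-down alters rotavirus replication in monkey cells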 (primary screen)", "cells": "monkey MA104 kidney cells", "knock-down reagent": "siRNA pool against human genes, 50 nM", "time to read-out": "48 h knock-down before infection; read 24 h after infection", "treatment": "infection with rotavirus strain RV3 two days after transfection; infectious dose for this stage not given", "detection": "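z-score of rotavirus antigen signal per well, from a fluorescent immunoassay, relative to non-targeting control wells on the same plate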", "direction": "z-score vs non-targeting control: higher = more rotavirus replication than with non-targeting control", "call rule": "In these data the active calls have z-score vs non-targeting control at about -1 or lower, or at about 1 or higher", "meaning of the calls": "active = z-score beyond 1 either way; inactive = z-score within 1 of zero", "note": "Here is an unselected part of about 12,000 reagents. About 5,600 of them (46%) count as active. 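Active calls cover z-scores past 1 in both directions, so they include lowered as well as raised rotavirus replication.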"}
{"target":"ZBTB21","z-score vs non-targeting control":0.36,"Outcome":"inactive"}
{"target":"SPOPL","z-score vs non-targeting control":-1.81,"Outcome":"active"}
{"target":"MFHAS1","z-score vs non-targeting control":0.718,"Outcome":"inactive"}
{"target":"SIN3B","z-score vs non-targeting control":0.18,"Outcome":"inactive"}
{"target":"KISS1R","z-score vs non-targeting control":-0.693,"Outcome":"inactive"}
{"target":"PRCD","z-score vs non-targeting control":-0.437,"Outcome":"inactive"}
{"target":"TMEM87A","z-score vs non-targeting control":1.17,"Outcome":"active"}
{"target":"GNG3","z-score vs non-targeting control":0.185,"Outcome":"inactive"}
{"target":"ATP6V1G2","z-score vs non-targeting control":1.47,"Outcome":"active"}
{"target":"NECAP2","z-score vs non-targeting control":-2.44,"Outcome":"active"}
{"target":"TCF20","z-score vs non-targeting control":-0.673,"Outcome":"inactive"}
{"target":"ZNF493","z-score vs non-targeting control":-0.295,"Outcome":"inactive"}

Called active, among the entries above:
{"target":"SPOPL","z-score vs non-targeting control":-1.81,"Outcome":"active"}
{"target":"TMEM87A","z-score vs non-targeting control":1.17,"Outcome":"active"}
{"target":"ATP6V1G2","z-score vs non-targeting control":1.47,"Outcome":"active"}
{"target":"NECAP2","z-score vs non-targeting control":-2.44,"Outcome":"active"}

Next results follow.
{"target":"H2BC3","z-score vs non-targeting control":-1.06,"Outcome":"active"}
{"target":"TLE1","z-score vs non-targeting control":2,"Outcome":"active"}
{"target":"GNA11","z-score vs non-targeting control":-0.755,"Outcome":"inactive"}
{"target":"CPZ","z-score vs non-targeting control":0.865,"Outcome":"inactive"}
{"target":"MED6","z-score vs non-targeting control":-1.95,"Outcome":"active"}
{"target":"LRRC56","z-score vs non-targeting control":1.61,"Outcome":"active"}
{"target":"HSPA5","z-score vs non-targeting control":0.542,"Outcome":"inactive"}
